Source: US10646469B2, “Substituted indole derivatives as dengue viral replication inhibitors” (Janssen Pharmaceuticals, Inc., priority 2016, dated 2020)

Tests used:
Type in all cases: cell-based, Dengue virus
DENV-1 strain TC974 #666 = assay: Tetravalent RT-qPCR assay, serotype 1; settings: RT-qPCR serotype 1 TC974#666, Protocol A
Method: (§1) The antiviral activity of the compounds of the invention was tested against DENV-1 strain TC974 #666 (NCPV), DENV-2 strain 16681, DENV-3 strain H87 (NCPV) and DENV-4 strain H241 (NCPV) in a RT-qPCR assay. Therefore, Vero cells were infected with either DENV-1, or -2, or -3, or -4 in the presence or absence of test compounds. At day 3 post-infection, the cells were lysed and cell lysates were used to prepare cDNA of both a viral target (the 3′UTR of DENV; Table 2) and cellular reference gene (β-actin, Table 2). Subsequently, a duplex real time PCR was performed on a Lightcycler480 instrument. The generated Cp value is inversely proportional to the amount of RNA expression of these targets. Inhibition of DENV replication by a test compound results in a shift of Cp's for the 3′UTR gene. On the other hand, if a test compound is toxic to the cells, a similar effect on β-actin expression will be observed. The comparative ΔΔCp method is used to calculate EC50, which is based on the relative gene expression of the target gene (3′UTR) normalized with the cellular housekeeping gene (β-actin). In addition, CC50 values are determined based on the Cp values acquired for the housekeeping gene β-actin.
(§2) The culture medium consisted of minimal essential medium supplemented with 2% of heat-inactivated fetal calf serum, 0.04% gentamycin (50 mg/mL) and 2 mM of L-glutamine. Vero cells, obtained from ECACC, were suspended in culture medium and 75 μL/well was added in 96-well plates (10000 cells/well), which already contain the antiviral compounds. […] In addition, each plate contains wells which are assigned as virus controls (containing cells and virus in the absence of compound) and cell controls (containing cells in the absence of virus and compound). Once the cells were added in the plates, the plates were incubated in a fully humidified incubator (37° C., 5% CO2) until the next day. Dengue viruses serotype-1, 2, 3 and 4 were diluted in order to obtain a Cp of ˜22-24 in the assay. Therefore, 25 μL of virus suspension was added to all the wells containing test compound and to the wells assigned as virus control. In parallel, 25 μL of culture medium was added to the cell controls. Next, the plates were incubated for 3 days in a fully humidified incubator (37° C., 5% CO2). After 3 days, the supernatant was removed from the wells and the cells were washed twice with ice-cold PBS (˜100 μL). The cell pellets within the 96-well plates were stored at −80° C. for at least 1 day. Next, RNA was extracted using the Cells-to-CT™ lysis kit, according to the manufacturer's guideline (Life Technologies). The cell lysates can be stored at −80° C. or immediately used in the reverse transcription step.
(§3) In preparation of the reverse transcription step, mix A (table 3A) was prepared and 7.57 μL/well was dispensed in a 96-well plate. After addition of 5 μL of the cell lysates, a five minute denaturation step at 75° C. was performed (table 3B). Afterwards, 7.43 μL of mix B was added (table 3C) and the reverse transcription step was initiated (table 3D) to generate cDNA.
(§4) Finally, a RT-qPCR mix was prepared, mix C (table 4A), and 22.02 μL/well was dispensed in 96-well LightCycler qPCR plates to which 3 μL of cDNA was added and the qPCR was performed according to the conditions in table 4B on a LightCycler 480.
(§5) Using the LightCycler software and an in-house LIMS system, dose response curves for each compound were calculated and the half maximal effective concentration (EC50) and the half maximal cytotoxic concentration (CC50) were determined (Tables 5-8).

DENV-2 16681 strain = assay: DENV-2 antiviral assay (eGFP-labeled virus in Vero cells); settings: SI=CC50/EC50, DENV-2 antiviral assay
Method: The antiviral activity of all the compounds of the invention was tested against the DENV-2 16681 strain which was labeled with enhanced green fluorescent protein (eGPF). The culture medium consists of minimal essential medium supplemented with 2% of heat-inactivated fetal calf serum, 0.04% gentamycin (50 mg/mL) and 2 mM of L-glutamine. Vero cells, obtained from ECACC, were suspended in culture medium and 25 μL was added to 384-well plates (2500 cells/well), which already contain the antiviral compounds. Typically, these plates contain a 5-fold serial dilution of 9 dilution steps of the test compound at 200 times the final concentration in 100% DMSO (200 nL). […] Finally, each plate contains wells which are assigned as virus controls (containing cells and virus in the absence of compound), cell controls (containing cells in the absence of virus and compound) and medium controls (containing medium in the absence of cells, virus and compounds). To the wells assigned as medium control, 25 μL of culture medium was added instead of Vero cells. Once the cells were added to the plates, the plates were incubated for 30 minutes at room temperature to allow the cells to distribute evenly within the wells. Next, the plates were incubated in a fully humidified incubator (37° C., 5% CO2) until the next day. Then, DENV-2 strain 16681, labeled with eGFP, was added at a multiplicity of infection (MOI) of 0.5. Therefore, 15 μL of virus suspension was added to all the wells containing test compound and to the wells assigned as virus control. In parallel, 15 μL of culture medium was added to the medium and cell controls. Next, the plates were incubated for 3 days in a fully humidified incubator (37° C., 5% CO2). At the day of the read out, the eGFP fluorescence was measured using an automated fluorescence microscope at 488 nm (blue laser). Using an in-house LIMS system, inhibition dose response curves for each compound were calculated and the half maximal effective concentration (EC50) was determined. Therefore, the percent inhibition (I) for every test concentration is calculated using the following formula: I=100*([…])/(SVC−SCC); ST, SCC and SVC are the amount of eGFP signal in the test compound, cell control and virus control wells, respectively. The EC50 represents the concentration of a compound at which the virus replication is inhibited with 50%, as measured by a 50% reduction of the eGFP fluorescent intensity compared to the virus control. The EC50 is calculated using linear interpolation (Table 1).

DENV-2 strain 16681 = assay: Tetravalent RT-qPCR assay, serotype 2; settings: RT-qPCR serotype 2 16681, Protocol A
Method: as §1, §2, §3, §4, §5

DENV-3 strain H87 = assay: Tetravalent RT-qPCR assay, serotype 3; settings: RT-qPCR serotype 3 H87, Protocol A
Method: as §1, §2, §3, §4, §5

DENV-4 strain H241 = assay: Tetravalent RT-qPCR assay, serotype 4; settings: RT-qPCR serotype 4 H241, Protocol A; ratio CC50 / EC50
Method: as §1, §2, §3, §4, §5

Structure (SMILES) | SI (DENV-1 strain TC974 #666) | SI (DENV-2 16681 strain) | SI (DENV-2 strain 16681) | SI (DENV-3 strain H87) | SI (DENV-4 strain H241)
COc1cc(NC(C(=O)c2c[nH]c3c(C)cc(OC(F)(F)F)cc23)c2ccc(F)cc2OC)cc(OCCO)c1 (single isomer, unassigned) [Compound 8A, 2-(4-fluoro-2-methoxyphenyl)-2-((3-(2-hydroxyethoxy)-5-methoxyphenyl)amino)-1-(7-methyl-5-(trifluoromethoxy)-1H-indol-3-yl)ethanone] | 3010 | 8380 | >10700 | 530 | 58
COc1cc(NC(C(=O)c2c[nH]c3cc(OC)c(OC(F)(F)F)cc23)c2ccc(Cl)cc2OC)cc(OCCO)c1 (single isomer, unassigned) [Compound 14A, 2-(4-chloro-2-methoxyphenyl)-2-((3-(2-hydroxyethoxy)-5-methoxyphenyl)amino)-1-(6-methoxy-5-(trifluoromethoxy)-1H-indol-3-yl)ethanone] | 3680 | 18500 | 25800 | 534 | 75
COc1cc(NC(C(=O)c2c[nH]c3ccc(OC(F)(F)F)cc23)c2ccc(F)cc2OC)cc(OCCO)c1 (single isomer, unassigned) [Compound 5B, 2-(4-fluoro-2-methoxyphenyl)-2-((3-(2-hydroxyethoxy)-5-methoxyphenyl)amino)-1-(5-(trifluoromethoxy)-1H-indol-3-yl)ethanone] | >3410 | >9300 | >7530 | >425 | 34
COc1cc(NC(C(=O)c2c[nH]c3c(C)cc(OC(F)(F)F)cc23)c2ccc(Cl)cc2OC)cc(OCCO)c1 (single isomer, unassigned) [Compound 16A, 2-(4-chloro-2-methoxyphenyl)-2-((3-(2-hydroxyethoxy)-5-methoxyphenyl)amino)-1-(7-methyl-5-(trifluoromethoxy)-1H-indol-3-yl)ethanone] | >12400 | >45000 | >32000 | >1650 | >84
COc1cc(NC(C(=O)c2c[nH]c3ccc(C(F)(F)F)cc23)c2ccc(Cl)cc2OC)cc(OCCO)c1 (single isomer, unassigned) [Compound 9B, 2-(4-chloro-2-methoxyphenyl)-2-((3-(2-hydroxyethoxy)-5-methoxyphenyl)amino)-1-(5-(trifluoromethyl)-1H-indol-3-yl)ethanone] | >3440 | >20100 | >13300 | 456 | 62
COc1cc(NC(C(=O)c2c[nH]c3cc(F)c(C(F)(F)F)cc23)c2ccc(F)cc2OC)cc(OCCO)c1 (single isomer, unassigned) [Compound 3A, 2-(4-fluoro-2-methoxyphenyl)-1-(6-fluoro-5-(trifluoromethyl)-1H-indol-3-yl)-2-((3-(2-hydroxyethoxy)-5-methoxyphenyl)amino)ethanone] | >2880 | 5050 | >5460 | >203 | >63
